Measured values from several laboratories, pooled; numbers as filed in NIAID ChemDB.

Shared fields: growth or infection tests; agent: Staphylococcus aureus; read-out: MIC

Neighbouring rows are from separate reports. Blank or dashed fields: not listed here.

{"smiles": "CC(C)c1c(O)c(C(C)(C)O)cc2c1CC[C@H]1C(C)(C)CCC[C@]21C", "value": "32 µg/mL"}
{"smiles": "CC(C)c1c(O)ccc2c1C=C[C@H]1C(C)(C)CCC[C@]21C", "strain or isolate": "Methicillin-resistant", "value": "2 µg/mL"}
{"smiles": "CC1CN(c2c(F)cc3c(=O)c(C(=O)O)cn(C4CC4)c3c2Cl)CCN1", "strain or isolate": "422", "value": "0.06 µg/mL"}
{"smiles": "Cc1c(O)ccc2c1CC[C@H]1C(C)(C)CCC[C@]21C", "value": "2 µg/mL"}
{"smiles": "CCCCC/C=C\\C/C=C\\CCCCCCCC(=O)O", "value": "200 µM"}
{"smiles": "CCCN1CCN(c2cc(=O)c3nc4c(oc3c2)c2c(=O)c3c(O)c(C)c5c(c34)=C(O)[C@@](C)(O/C=C/[C@H](OC)[C@@H](C)[C@@H](OC(C)=O)[C@H](C)[C@H](O)[C@H](C)[C@@H](O)[C@@H](C)/C=C/C=C(/C)C(=O)N2)O5)CC1", "strain or isolate": "209P", "value": "0.002 µg/mL"}
{"smiles": "CC(=O)c1cc2c(c(C(C)C)c1O)CC[C@H]1C(C)(C)CCC[C@]21C", "value": ">32 µg/mL"}
{"smiles": "CN[C@@H]1[C@H](O[C@H]2[C@H](O[C@H]3[C@H](O)[C@@H](O)[C@H](N=C(N)N)[C@@H](O)[C@@H]3N=C(N)N)O[C@@H](C)[C@]2(O)C=O)O[C@@H](CO)[C@H](O)[C@H]1O", "value": "6.25 µg/mL"}
{"smiles": "CCO[C@@H]1C[C@H]2C(C)(C)CCC[C@]2(C)c2ccc(O)c(C(C)C)c21", "strain or isolate": "Methicillin-resistant", "value": "2 µg/mL"}
{"smiles": "COc1c(Br)cc2c(c1C(C)C)CC[C@H]1C(C)(C)CCC[C@]21C", "value": ">32 µg/mL"}
{"smiles": "CCNCC1CCN(c2c(F)cc3c(=O)c(C(=O)O)cn(C(C)(C)C)c3c2F)C1", "value": "0.06 µg/mL"}
{"smiles": "CC(C)c1cc2c(cc1OS(=O)(=O)C(F)(F)F)[C@@]1(C)CCCC(C)(C)[C@@H]1CC2", "value": ">32 µg/mL"}
{"smiles": "O=c1[nH]sc2ccc(F)cc12", "strain or isolate": "ATCC 6538", "value": "5 µg/mL"}
{"smiles": "CC(C)c1cc2c(cc1O[C@H]1O[C@H](CO)[C@H](O)[C@H](O)[C@H]1O)[C@@]1(C)CCCC(C)(C)[C@@H]1CC2", "value": "32 µg/mL"}
{"smiles": "CC1CN(c2c(Cl)cc3c(=O)c(C(=O)O)cn(C4CC4)c3c2F)CC(C)O1", "strain or isolate": "1756", "value": "≤0.015 µg/mL"}
{"smiles": "CCN1OCC(N)C1=O", "value": ">2500 µM"}
{"smiles": "O=C(O)c1cn(C2CC2)c2c(F)c(N3CCN(CCO)CC3)c(Cl)cc2c1=O", "strain or isolate": "133", "value": "0.25 µg/mL"}
{"smiles": "CO[C@H]1/C=C/O[C@@]2(C)Oc3c(C)c(O)c4c(=O)c(c5oc6cc(N7CCN(CC(C)C)CC7)cc(=O)c6nc5c4c3=C2O)NC(=O)/C(C)=C\\C=C\\[C@H](C)[C@H](O)[C@@H](C)[C@@H](O)[C@@H](C)[C@H](OC(C)=O)[C@@H]1C", "strain or isolate": "ATCC 29213", "value": "0.0313 µg/mL"}
{"smiles": "CC(C)c1c(O)ccc2c1C[C@@H](O)[C@H]1C(C)(C)CCC[C@]21C", "strain or isolate": "Methicillin-resistant", "value": "8 µg/mL"}
{"smiles": "O=c1[nH]sc2cc(C(F)(F)F)ccc12", "strain or isolate": "ATCC 6538", "value": "10 µg/mL"}
{"smiles": "CC1(C)CCC[C@]2(C)c3ccc(O)cc3CCC12", "value": "8 µg/mL"}
{"smiles": "COc1c(O)cc2c(c1C(C)C)CC[C@H]1C(C)(C)CCC[C@]21C", "value": ">32 µg/mL"}
{"smiles": "CC(C)c1cc2c(cc1O[C@@H]1O[C@H](CO)[C@H](O)[C@H](O)[C@H]1O)[C@@]1(C)CCCC(C)(C)[C@@H]1CC2", "value": ">32 µg/mL"}
{"smiles": "CC(C)c1c(O)c(N)cc2c1CC[C@H]1C(C)(C)CCC[C@]21C", "value": ">32 µg/mL"}
{"smiles": "COCCN1OCC(N)C1=O", "value": ">2500 µM"}
{"smiles": "O=c1[nH]sc2cccc(F)c12", "strain or isolate": "ATCC 6538", "value": "25 µg/mL"}
{"smiles": "Cc1c(N2CCCC2)c(F)cn2c(=O)c(C(=O)O)cc(C3CC3)c12", "strain or isolate": "NCTC10649", "value": "0.005 µg/mL"}
{"smiles": "CN1CCN(c2c(F)cc3c(=O)c(C(=O)O)cn(C4CC4)c3c2Cl)CC1", "strain or isolate": "422", "value": "0.06 µg/mL"}
{"smiles": "CONC(=O)CN1OCC(N)C1=O", "value": ">2500 µM"}
{"smiles": "C[C@H]1C[C@H](N)CN1c1cc2c(cc1F)c(=O)c(C(=O)O)cn2-c1ccc(F)cc1F", "strain or isolate": "1775 (ciprofloxacin-resistant)", "value": "8 µg/mL"}
{"smiles": "CSCN1OCC(N)C1=O", "value": ">2500 µM"}
{"smiles": "CCCCCCCC(CCCCCCC)CC(=O)O", "value": "200 µM"}
{"smiles": "CC(=O)OC[C@H]1O[C@@H](Oc2cc3c(cc2C(C)C)CC[C@H]2C(C)(C)CCC[C@]32C)[C@H](OC(C)=O)[C@@H](OC(C)=O)[C@@H]1OC(C)=O", "value": ">32 µg/mL"}
{"smiles": "CC(C)=CCC[C@H](C)CCOCCCCCC(=O)O", "value": "1000 µM"}
{"smiles": "Cc1cc(C(=O)O)c(=O)n2cc(F)c(N3CC[C@H](N)C3)c(C)c12", "strain or isolate": "1775 (ciprofloxacin-resistant)", "value": ">100 µg/mL"}
{"smiles": "CC1CN(c2c(Cl)cc3c(=O)c(C(=O)O)cn(C4CC4)c3c2F)CCN1", "strain or isolate": "133", "value": "0.25 µg/mL"}
{"smiles": "COC[C@H](N)C1CCN(c2c(F)cn3c(=O)c(C(=O)O)cc(C4CC4)c3c2C)C1", "strain or isolate": "NCTC10649", "value": "0.002 µg/mL"}
{"smiles": "CN1CCN(c2c(Cl)cc3c(=O)c(C(=O)O)cn(C4CC4)c3c2F)CC1", "strain or isolate": "1756", "value": "0.5 µg/mL"}
{"smiles": "CC(C)c1c(O)c(Br)cc2c1CC[C@H]1C(C)(C)CCC[C@]21C", "value": ">32 µg/mL"}
{"smiles": "O=C(O)c1cn(C2CC2)c2c(Cl)c(N3CCNCC3)c(F)cc2c1=O", "strain or isolate": "1756", "value": "0.125 µg/mL"}
{"smiles": "COc1cc2c(cc1C(C)C)CC[C@H]1C(C)(C)CCC[C@]21C", "value": ">32 µg/mL"}
{"smiles": "CO/N=C(\\C(=O)N[C@@H]1C(=O)N2C(C(=O)O)=C(COC(C)=O)CS[C@H]12)c1csc(N)n1", "strain or isolate": "ATCC 6538", "value": "1.5 µg/mL"}

Repeating the first 4 entries:

smiles	strain or isolate	value
CC(C)c1c(O)c(C(C)(C)O)cc2c1CC[C@H]1C(C)(C)CCC[C@]21C	-	32 µg/mL
CC(C)c1c(O)ccc2c1C=C[C@H]1C(C)(C)CCC[C@]21C	Methicillin-resistant	2 µg/mL
CC1CN(c2c(F)cc3c(=O)c(C(=O)O)cn(C4CC4)c3c2Cl)CCN1	422	0.06 µg/mL
Cc1c(O)ccc2c1CC[C@H]1C(C)(C)CCC[C@]21C	-	2 µg/mL